Measured values from several laboratories, pooled; numbers as filed in NIAID ChemDB.

All rows: tests in culture

Blank or dashed fields: not listed here.

smiles,dose,read by,cell line,agent,strain or isolate,read-out,value
CCC(CC)O[C@@H]1C=C(C(=O)O)C[C@H](N)[C@H]1NC(C)=O,,visual reading,MDCK,Influenza A virus,H1N1 A/PR/8/34,EC50,0.35 µM
O=C(Nc1ccc2c(O)c(N=Nc3ccc(N=Nc4ccc(S(=O)(=O)O)cc4)cc3)c(S(=O)(=O)O)cc2c1)c1ccccc1,50 µg/mL,cytopathic effect,Human amnion AV3 cells,Adenovirus,TYPE 3,inhibition,0%
Cc1cc(CCCOc2c(C)cc(-c3noc(C(F)(F)F)n3)cc2C)on1,,cytopathic effect / visual reading,OHIO HELA-I,Rhinovirus,Isolate 31,EC50,1.45 µg/mL
O=C(Nc1ccc2cc(S(=O)(=O)[O-])cc(S(=O)(=O)[O-])c2c1)c1ccccc1,50 µg/mL,cytopathic effect,Human amnion AV3 cells,Herpes simplex virus,,inhibition,45%
C=CCc1ccc(O)c(OC)c1,,turbidity,,Candida tropicalis,2480,MIC90,485 µg/mL
NCS(=O)(=O)O,5 µg/mL,cytopathic effect,Human amnion AV3 cells,Herpes simplex virus,,inhibition,10%
Oc1ccccc1N=Cc1cccc(O)c1O,,,,Cryptococcus neoformans,ATCC 28957,MIC99,4 µg/mL
C/C=C\[C@@H]1C[C@H](C(=O)O)N[C@H]1[C@@H](NC(C)=O)[C@](C)(CCC)OC,,plaque count,MDCK,Influenza A virus,H1N1 TEXAS/36/91,EC50,0.0004 µM
O=[N+]([O-])c1ccc(C=Nc2ccccc2O)cc1,,,,Cryptococcus gattii,1913 ER,MIC99,16 µg/mL
Nc1nc2c(ncn2COCCO)c(=O)[nH]1,1 µg/mL,plaque count,HELF,Varicella zoster virus,KANNO,inhibition,82%
Cc1nc(NCCCCNc2ccnc3cc(Cl)ccc23)nc(-c2ccccc2[N+](=O)[O-])c1C(=O)OC(C)C,,,,Cryptococcus gattii,547/OTTI-97-PI-10,MIC99,16 µg/mL
CCOC(=O)c1ccc(OCCC2CCN(c3ccc(C)nn3)CC2)cc1,,neutral red,KB,Rhinovirus,1857-CV51 (ICAM-1 receptor group 67),EC50,0.054 µM
Oc1ccccc1C=Nc1ccccc1O,,,,Cryptococcus gattii,196L/03,MIC99,11.3 µg/mL
Cc1ccc(C(=O)Nc2ccc(S(=O)(=O)O)c3cc(S(=O)(=O)O)cc(S(=O)(=O)O)c23)cc1NC(=O)c1cccc(NC(=O)Nc2cccc(C(=O)Nc3cc(C(=O)Nc4ccc(S(=O)(=O)O)c5cc(S(=O)(=O)O)cc(S(=O)(=O)O)c45)ccc3C)c2)c1,50 µg/mL,cytopathic effect,Human embryonic lung cells,Adenovirus,TYPE 3,inhibition,0%
O=c1[nH]c(=O)n([C@@H]2O[C@H](CO)[C@@H](O)[C@@H]2O)cc1/C=C/Cl,0.001 µg/mL,plaque count,HELF,Varicella zoster virus,Kawaguchi,inhibition,98%
COc1cc(-c2ccc(N=Nc3ccc4c(S(=O)(=O)O)cc(S(=O)(=O)O)c(N)c4c3O)c(OC)c2)ccc1N=Nc1ccc2c(S(=O)(=O)O)cc(S(=O)(=O)O)c(N)c2c1O,5 µg/mL,cytopathic effect,Human embryonic lung cells,Rhinovirus,,inhibition,0%
Cc1cn([C@@H]2O[C@H](CO)[C@@H](O)[C@@H]2O)c(=O)[nH]c1=O,0.01 µg/mL,plaque count,HELF,Varicella zoster virus,OKA,inhibition,0%
Nc1ccc2c(O)cc(S(=O)(=O)[O-])cc2c1S(=O)(=O)[O-],10 µg/mL,cytopathic effect,Human conjunctiva cells,Herpes simplex virus,,inhibition,0%
Nc1nc(=O)n([C@@H]2O[C@H](CO)[C@@H](O)[C@@H]2F)cc1I,0.01 µg/mL,plaque count,HELF,Varicella zoster virus,KANNO,inhibition,67%
CCOC(=O)c1c(C)nc(NCCCCNc2ccnc3cc(Cl)ccc23)nc1-c1ccc(F)cc1,,,,Cryptococcus gattii,ATCC 24065,MIC99,8 µg/mL
C=Cc1cn([C@@H]2O[C@H](CO)[C@@H](O)[C@@H]2O)c(=O)[nH]c1=O,1 µg/mL,plaque count,HELF,Varicella zoster virus,HIRAI,inhibition,100%
O=C(Nc1c(S(=O)(=O)[O-])cc2cc(S(=O)(=O)[O-])cc(O)c2c1O)c1ccccc1,5 µg/mL,cytopathic effect,Human amnion AV3 cells,Adenovirus,TYPE 3,inhibition,60%

For reference, 2 entries again:

smiles | dose | read by | cell line | agent | strain or isolate | read-out | value
O=C(Nc1ccc2cc(S(=O)(=O)[O-])cc(S(=O)(=O)[O-])c2c1)c1ccccc1 | 50 µg/mL | cytopathic effect | Human amnion AV3 cells | Herpes simplex virus |  | inhibition | 45%
Cc1nc(NCCCCNc2ccnc3cc(Cl)ccc23)nc(-c2ccccc2[N+](=O)[O-])c1C(=O)OC(C)C |  |  |  | Cryptococcus gattii | 547/OTTI-97-PI-10 | MIC99 | 16 µg/mL

Lines come from different laboratories, so protocols vary. ECn: concentration that inhibits the pathogen or its effect by n%. A number after MIC or MFC names an inhibition level or a share of isolates. Inhibition is in % at the dose shown (toxicity tests: loss of growth or viability).